# Measured data: PubChem BioAssay AID624099 (ICCB-Longwood, 2012)
# Screen: 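Human genes that papillomavirus E2 requires to repress the HPV18 LCR promoter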 (primary screen)
# Cells: human C33A cervical carcinoma cells (HPV-negative) stably expressing BPV1 E2 and an HPV18 LCR luciferase reporter
# Reagents: siRNA pool against human genes, 40 nM
# Timing: 72 h
# Measurement: 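Per-well luciferase luminescence, z-scored on each plate against the plate mean and SD with control wells left out, then averaged across three replicate plates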
# Reading the numbers: mean z-score and z-score: higher = stronger reporter signal, weaker E2 silencing
# Active means: 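Hit if mean z-score reaches 2 and two or more of three replicate z-scores also reach 2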
# The whole screen tested about 21,000 reagents; shown is a random part of them. Over the whole deposit, 497 (2.4%) are marked active. 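Higher z means weaker E2 silencing; only reporter increases were scored, and knock-downs that hurt cell survival may mask genuine repressor factors.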
gene knocked down,mean z-score,"z-score, replicate A","z-score, replicate B","z-score, replicate C",outcome
TAAR2 (trace amine associated receptor 2),-1.16,-1.31,-1.26,-0.9,inactive
GPR55 (G protein-coupled receptor 55),-0.11,-0.49,0.11,0.05,inactive
GSTM3 (glutathione S-transferase mu 3),1,0.59,1.03,1.39,inactive
S100A9 (S100 calcium binding protein A9),0.05,-0.02,0.18,0,inactive
TMEM130 (transmembrane protein 130),-0.44,-0.85,-0.04,-0.43,inactive
TTBK1 (tau tubulin kinase 1),0.9,1.2,0.7,0.81,inactive
SEH1L (SEH1 like nucleoporin),-0.75,-0.59,-0.97,-0.7,inactive
ZNF561 (zinc finger protein 561),-1.32,-1.43,-1.07,-1.47,inactive
GSC (goosecoid homeobox),0.64,0.75,0.51,0.68,inactive
"NPRL3 (NPR3 like, GATOR1 complex subunit)",0.08,0.04,0.1,0.08,inactive
ZNF18 (zinc finger protein 18),-0.58,-0.62,-0.52,-0.59,inactive
UBXN4 (UBX domain protein 4),-0.75,-0.91,-0.62,-0.7,inactive
LOC401180 (retired record),-0.38,-0.21,-0.53,-0.41,inactive
TEX29 (testis expressed 29),-1.69,-0.96,-2.11,-2.01,inactive
LOC340913 (retired record),-0.24,-0.29,-0.34,-0.08,inactive
RNF32-DT (RNF32 divergent transcript),0.76,1.08,0.78,0.43,inactive
DPF1 (double PHD fingers 1),-0.57,-0.92,-0.55,-0.23,inactive
HRH2 (histamine receptor H2),0.03,0.07,0.25,-0.24,inactive
RDH16 (retinol dehydrogenase 16),-0.58,-0.67,-0.38,-0.69,inactive
AIMP2,0.78,0.73,1.04,0.58,inactive
HOXC9 (homeobox C9),-0.73,-0.56,-0.72,-0.92,inactive
SMIM11 (small integral membrane protein 11),-0.9,-0.55,-0.87,-1.28,inactive
PCDHB1 (protocadherin beta 1),-0.01,0.04,0.26,-0.33,inactive

2 successive reagents from above, quoted:
gene knocked down,mean z-score,"z-score, replicate A","z-score, replicate B","z-score, replicate C",outcome
HRH2 (histamine receptor H2),0.03,0.07,0.25,-0.24,inactive
RDH16 (retinol dehydrogenase 16),-0.58,-0.67,-0.38,-0.69,inactive
